Literature values as cited in publication PMC6904115 (Neuropharmacology, 2019).

System: NK1R
Details: compared with endogenous opioids; ref Marvizon et al., 2003b; cited from earlier work

neurokinin A
cleavage by peptidases: much less readily
